Measurements as given in patent US20250283886A1.
Several values for one entry are separate records, joined by “and”; a condition that tells them apart may be missing. Equal values may be shown once. Read-outs that look alike come from different tables or passages of the source.

What was measured:
[1] = target: peptide having an N-terminal phenylalanine residue
[2] = target: peptide having an N-terminal phenylalanine residue; remark: listed apart in the source
[3] = target: peptide having an N-terminal tryptophan residue
[4] = target: peptide having an N-terminal tyrosine residue
[5] = target: peptide having an N-terminal phenylalanine residue; remark: listed apart in the source
[6] = target: peptide having an N-terminal tryptophan residue; remark: listed apart in the source
[7] = target: peptide having an N-terminal tyrosine residue; remark: listed apart in the source
[8] = target: QP64: …

Substance | mean pulse duration (u) [1] [s] | mean inter-pulse duration (u) [2] [s] | mean inter-pulse duration (u) [3] [s] | mean inter-pulse duration (u) [4] [s] | mean pulse duration (u) [5] | mean pulse duration (u) [6] | mean pulse duration (u) [7] | median pulse duration (value at the dashed line) [8] [s]
ClpS2 from A. tumefaciens labeled at an exposed cysteine residue with ATTO 532 | 0.14 | 3 | 3.94 | 3.73 | 0.15 s and 0.09 s | 0.06 s and 0.04 s | 0.09 s and 0.06 s | 
GID4 |  |  |  |  |  |  |  | 0.17
